System: Influenza A virus (A/California/08/2009(H1N1))
Test: Selectivity ratio of IC50 for Influenza A virus (A/California/08/2009(H1N1)) wild type neuraminidase to IC50 for oseltamivir-resistant Influenza A virus (A/California/08/2009(H1N1)) neuraminidase H274Y mutant

| SMILES | Selectivity ratio |
| --- | --- |
| COc1c(C)c(O)c(C)c(O)c1C(=O)/C=C/c1ccc(O)cc1 | 2.46 |
| COc1c(C)c(O)c(C)c(O)c1C(=O)/C=C/c1ccccc1O | 4.23 |
| COc1cc(O)c(C)c(O)c1C(=O)/C=C/c1ccccc1 | 3.6 |
| COc1c(C)c(O)c(C)c(O)c1C(=O)/C=C/c1ccccc1 | 7 |
